Where “and” joins values, the source holds several entries; their conditions need not be identical. Identical values can stand only once.
Tested on: latent HIV-1
Experiment: HIV-1 latency reversal activity, GFP expression of J-Lat 10.6 cells
Format: cell-based
Conditions: compared to crotignoid K (13)
Description: Figure 1 HIV-1 latency reversal activity of methanolic crude extract (EU), partitioned n-hexane (EU-H), dichloromethane (EU-C), ethyl acetate (EU-E), and water-soluble residue (EU-W) phases. (A) dose-response experiments conducted with Jurkat T cells that were latently infected with full-length HIV-1 reporter construct (J-Lat 10.6 cells), HIV-1 reactivation quantified as % of positive control (PMA); (B) cell viability of each sample at 10, 50, 100, 500, and 1000 μg/mL.
Jurkat cells with a full-length integrated HIV-1 provirus that have been modified to contain a GFP coding region in place of the env gene (J-lat 10.6 cells) were used for HIV-1 anti-latency activity, cytotoxicity, and cellular activation testing. All 31 compounds were tested at 1, 10, and 100 μM. […] These compounds were further tested at additional concentrations to determine dose response and toxicity curves (Figure 5A–F). Cell viability for all isolated compounds is presented in Figure S106 in the supplementary material.
The HIV-1-infected Jurkat T cell line (J-Lat 10.6) was obtained in January 2019 from the NIH/ATCC HIV-1 Reagent Program (www.hivreagentprogram.org) and cultured in RPMI-based media supplemented with 10% fetal calf serum, 1% penicillin, and 1% streptomycin. […]

## CC(=O)O[C@@]12[C@H](OC(=O)c3ccccc3)[C@@H](C)[C@]3(O)[C@@H]4C=C(C)C(=O)[C@H]4CC(CO)=C[C@H]3[C@@H]1C2(C)C [Compound 14, 4β-Crotignoid K]
  fold difference in EC50 of latency reversal, 14 versus 13: 250 fold and ~ 250 fold

From paper PMC8308672, “Bioactive Compounds from Euphorbia usambarica Pax. with HIV-1 Latency Reversal Activity” (Pharmaceuticals, 2021)
